Here are results for 1 sequence from publication PMC10657842.

For the data set, the system named is MvaT-His. The experiment in a line: EMSA. To be noted: 0.5-2 uM MvaT, 20 ng probe; recombinant protein; residues 1-125; protein details: C-terminal His (pET28a NcoI-XhoI); probe letters rebuilt from the primers and the genome.

For the sequence “ATACGGCCTGCGAACTCGGCAAGCAGTCGGTTGACCTTGCTCGTTAAATCCATGGGGGCGCCTCCTAAAGCTCAGCGCATGCTAGCACCGGGCTATGCATCGCTTTTGTCACTGAGAGACTTTTCTTTTAAGAAAAAAGCCACATCGCTGTGGCCTTTTCCTCCCGCGCGGAGACGGCTCAGACCACTCCGGCCGCCGCACGCCAGGCCTGGTTATGGCTCTGGGTGTACTGCTGGATGAGCTGCAGGACGTCCTTCATGAAGCCGGCATCGAAGCTCATCTGGTCCTCGACCTTCTGCTTCTGGCTCTGCCCGATGGTGGCGTTGACCTCTCCTTCCCGGGCGCTCGCCTGCGATTCGCCCTGGCGCACCTGGACCGAGGCGTTGGCCATCTGGACGAAGGACTGGATCACCGTGTTGGCCACCTGCAGGGCGCCGTTGCGGCTCTCGAAGGCACGGCCCGCCGCACGCAACGCCACACTGTCCTGCACCTGGTCCGCC (double strand) [PexsC promoter EMSA probe]”, the binding result is reported as “binds”.
